Experimental data taken from US20110046349 (published 2011).

Experiments:
[1] = general procedure: hybrid (solid and solution phase) peptide synthesis; CTC resin (fragments with C-terminal acid); Sieber amide resin (fragments with C-terminal amide); DIC/HOBt hydrate on solid phase (PyBOP, TOTU, TCTU for some couplings); TBTU, TO; conditions: for step yield: recovery yield
[2] = general procedure: hybrid (solid and solution phase) peptide synthesis; CTC resin; DIC/HOBt hydrate on solid phase (PyBOP, TOTU, TCTU for some couplings); TBTU, TO; conditions: whole synthesis
[3] = general procedure: hybrid (solid and solution phase) peptide synthesis; Sieber amide resin; DIC/HOBt hydrate on solid phase (PyBOP, TOTU, TCTU for some couplings); TBTU, TO; conditions: whole synthesis
[4] = late stage modification step, HPLC

| Substance | crude purity (method not given) ([1]; coupling step, HPLC) [%] | step yield ([1]; coupling step) [%] | crude purity (method not given) ([1]; whole synthesis, HPLC) [%] | crude purity (method not given) [1, 4] [%] | also measured |
| --- | --- | --- | --- | --- | --- |
| Fmoc-Phe-Ile-Glu(OtBu)-^25Trp(Boc)-Leu-Lys(Boc)-Asn(Trt)-Gly-^30Gly-Pro-Ser(tBu)-Ser(tBu)-Gly-^35Ala-Pro-Pro-Pro-Ser(tBu)-NH2 | 89 | 100 |  |  |  |
| Fmoc-^22Phe-Ile-Glu(tBu)-Trp(Boc)-Leu-^27Lys(Boc)-Asn(Trt)-Gly-Gly-Pro-^32Ser(tBu)-Ser(tBu)-Gly-Ala-^36Pro-Pro-Pro-^39Ser(tBu)-NH2 |  | 99 |  |  | crude purity (method not given) ([1]; coupling step, HPLC, run 1): 77.7%; crude purity (method not given) ([1]; coupling step, HPLC, run 2): 89.5% |
| Fmoc-^26Leu-Lys(Boc)-Asn(Trt)-^29Gly-Gly-Pro-Ser(tBu)-Ser(tBu)-^34Gly-Ala-Pro-Pro-^38Pro-OH |  |  |  |  | crude purity (method not given) ([2]; HPLC): 93.4% |
| Fmoc-^27Lys(Boc)-Asn(Trt)-Gly-Gly-^31Pro-Ser(tBu)-Ser(tBu)-Gly-^35Ala-Pro-Pro-Pro-^39Ser(tBu)-NH2 | 89.92 | 85 |  |  |  |
| Fmoc-^27Lys(Boc)-Asn(Trt)-^29Gly-Gly-Pro-Ser(tBu)-Ser(tBu)-^34Gly-Ala-Pro-Pro-^38Pro-OH |  |  | 73.35 |  |  |
| Fmoc-^30Gly-Pro-Ser(tBu)-Ser(tBu)-Gly-^35Ala-Pro-Pro-Pro-OH |  |  | 97 |  | crude mass ([2]; scale 19.9 mol): 23.2 kg |
| Fmoc-^30Gly-Pro-Ser(tBu)-Ser(tBu)-Gly-^35Ala-Pro-Pro-Pro-Ser(tBu)-NH2 | 97 | 92 | 78 |  | crude mass ([3]; scale 6 mmol): 4.6 g; crude yield ([1]; whole synthesis, recovery yield based on target batch size of 6 mmol): 60% |
| Fmoc-^31Pro-Ser(tBu)-Ser(tBu)-Gly-^35Ala-Pro-Pro-Pro-^39Ser(tBu)-NH2 | 81 |  |  |  |  |
| Fmoc-^31Pro-Ser(tBu)-Ser(tBu)-Gly-^35Ala-Pro-Pro-^38Pro-OH |  |  | 91.67 |  |  |
| Fmoc-^32Ser(tBu)-Ser(tBu)-Gly-^35Ala-Pro-Pro-Pro-^39Ser(tBu)-NH2 | 100 | 82 |  |  |  |
| H-Phe-Ile-Glu(OtBu)-^25Trp(Boc)-Leu-Lys(Boc)-Asn(Trt)-Gly-^30Gly-Pro-Ser(tBu)-Ser(tBu)-Gly-^35Ala-Pro-Pro-Pro-Ser(tBu)-NH2 |  | 81 |  | 87 | crude HPLC purity ([1]; coupling step, HPLC): 88%; step yield ([1]; late stage modification step): 100% |
| H-^27Lys(Boc)-Asn(Trt)-Gly-Gly-^31Pro-Ser(tBu)-Ser(tBu)-Gly-^35Ala-Pro-Pro-Pro-^39Ser(tBu)-NH2 |  |  |  | 84.79 |  |
| H-^30Gly-Pro-Ser(tBu)-Ser(tBu)-Gly-^35Ala-Pro-Pro-Pro-Ser(tBu)-NH2 |  |  | 93 | 91 | crude mass ([3]; scale 4 mmol): 3.3 g; step yield ([1]; late stage modification step): 99%; crude yield ([1]; whole synthesis, recovery yield based on target batch size of 4 mmol): 60% |
| H-^31Pro-Ser(tBu)-Ser(tBu)-Gly-^35Ala-Pro-Pro-Pro-^39Ser(tBu)-NH2 |  |  |  | 95.0 | step yield ([1]; late stage modification step): 99% |
| H-^32Ser(tBu)-Ser(tBu)-Gly-^35Ala-Pro-Pro-Pro-^39Ser(tBu)-NH2 |  |  |  | 100 |  |
